A mixed list of measured activities; the numbers were collected in NIAID ChemDB.

Shared fields: whole-cell or culture tests

Lines come from different laboratories, so protocols vary.

smiles	agent	strain or isolate	method	setting	measure	value
FC(F)(F)c1ccc(-c2ccc(CNc3ncnc4ccccc34)cc2)nc1	Mycobacterium bovis BCG		luminescence		MIC50	>20 µM
CC1(C)N=C(N)N=C(N)N1OCCCOc1cc(Cl)c(Cl)cc1Cl	Mycobacterium avium complex	9141			MIC	1 µg/mL
Fc1ccc(Oc2ccc(CNc3ncnc4sccc34)cc2)cc1	Mycobacterium bovis BCG		luminescence		MIC50	>20 µM
Nc1ccc(S(=O)(=O)c2ccc(N)cc2)cc1	Mycobacterium avium complex	DW9			MIC	64 µg/mL
O=C(NNC(=O)c1ccncc1)Nc1ccc(F)c(Cl)c1	Mycobacterium kansasii	My 6509/96	broth dilution	21 d	MIC100	>125 µM
Fc1ccc2c(Nc3ccc(-c4ccc(C(F)(F)F)cc4)cc3)ncnc2c1	Mycobacterium bovis BCG		luminescence		MIC50	>20 µM
O=C(NNC(=O)c1ccncc1)Nc1ccc(F)cc1Br	Mycobacterium kansasii	My 235/80	broth dilution	21 d	MIC100	>125 µM
C[C@@H]1CN(c2c(F)c(N)c3c(=O)c(C(=O)O)cn(C4CC4)c3c2F)C[C@H](C)N1	Mycobacterium africanum	ATCC 25420	broth dilution / visual reading		MIC	0.1 µg/mL
NNC(=O)c1ccncc1	Mycobacterium kansasii	My 235/80	broth dilution	7 d	MIC100	>250 µM
CC(C)(C)c1ccc(CCNc2ncnc3ccccc23)cc1	Mycobacterium bovis BCG		luminescence		MIC50	>20 µM
S=c1oc2ccc(Br)cc2c(=S)n1-c1ccc(Br)cc1	Mycobacterium kansasii	My 235/80		21 d	MIC	4 µM
CO[C@H]1/C=C/O[C@@]2(C)Oc3c(C)c(O)c4c(=O)c(c5oc6cc(N7CCN(CC(C)C)CC7)cc(=O)c6nc5c4c3=C2O)NC(=O)/C(C)=C\C=C\[C@H](C)[C@H](O)[C@@H](C)[C@@H](O)[C@@H](C)[C@H](OC(C)=O)[C@@H]1C	Mycobacterium ulcerans	Isolate 94-886			MBC	0.012 µg/mL
FC(F)(F)c1cccc(Oc2ccc(CNc3ncnc4ccccc34)cc2)c1	Mycobacterium bovis BCG		luminescence		MIC50	>20 µM
NNC(=O)c1ccncc1	Mycobacterium avium complex	N-981 (HIV+)			MIC	2 µg/mL
CC(C)N=C(N)/N=C(\N)NOCCCOc1cc(Cl)c(Cl)cc1Cl	Mycobacterium avium complex	1625			MIC	32 µg/mL
FC(F)(F)c1ccc(CCNc2ncnc3ccsc23)cc1	Mycobacterium bovis BCG		luminescence		MIC50	>50 µM
COc1ccc(Nc2nnc(-c3ccncc3)o2)cc1	Mycobacterium kansasii	My 6509/96	broth dilution	21 d	MIC100	>125 µM
FC(F)(F)c1ccc(CNc2ncnc3ccccc23)cc1	Mycobacterium bovis BCG		luminescence		MIC50	>20 µM
CCCCCCCNC(=O)NNC(=O)c1ccncc1	Mycobacterium kansasii	My 235/80	broth dilution	21 d	MIC100	125 µM
FC(F)(F)c1ccc(N2CCC3(CCN(c4ccc(Nc5ncnc6cc[nH]c56)cc4)CC3)CC2)cc1	Mycobacterium bovis BCG		luminescence		MIC50	>50 µM
C[C@@H](O)[C@H]1C(=O)N2C(C(=O)O)=C(SCCN=CN)C[C@H]12	Mycobacterium fortuitum	1260			MIC	1.56 µg/mL
CC(C)Oc1ccc(-c2ccc(Nc3ncnc4ccccc34)cc2)cc1	Mycobacterium bovis BCG		luminescence		MIC50	>10 µM
CO[C@@]1(NC(=O)Cc2ccccc2)C(=O)N2C(C(=O)O)=C(COC(C)=O)CSC21	Mycobacterium fortuitum	1059			MIC	>100 µg/mL
CO[C@H]1/C=C/O[C@@]2(C)Oc3c(C)c(O)c4c(O)c(c5c(c4c3C2=O)NC2(CCN(CC(C)C)CC2)N=5)=NC(=O)/C(C)=C\C=C\[C@H](C)[C@H](O)[C@@H](C)[C@@H](O)[C@@H](C)[C@H](OC(C)=O)[C@@H]1C	Mycobacterium avium intracellulare	1296			MIC	0.5 µg/mL
C[C@@H]1CN(c2c(F)c(N)c3c(=O)c(C(=O)O)cn(C4CC4)c3c2F)C[C@H](C)N1	Mycobacterium avium complex	N-289 (HIV-)			MIC	0.25 µg/mL
CO[C@@]1(NC(=O)CCCC(N)C(=O)O)C(=O)N2C(C(=O)O)=C(COC(N)=O)CSC21	Mycobacterium fortuitum	4-May			MIC	>100 µg/mL
CC1COc2c(N3CCN(C)CC3)c(F)cc3c(=O)c(C(=O)O)cn1c23	Mycoplasma hominis	20 strains			MIC50	0.2 µg/mL
COc1ccc2oc(=S)n(-c3ccc(Br)cc3)c(=S)c2c1	Mycobacterium kansasii	My 235/80		14 d	MIC	32 µM
CO[C@@]1(NC(=O)Cc2ccccc2)C(=O)N2C(C(=O)[O-])=C(CSc3nnc(C)s3)CSC21	Mycobacterium fortuitum	1045			MIC	>100 µg/mL
O=C(NNC(=O)c1ccncc1)Nc1ccc(Br)c(C(F)(F)F)c1	Mycobacterium kansasii	My 6509/96	broth dilution	7 d	MIC100	125 µM
CC[C@H]1OC(=O)[C@H](C)[C@@H](O[C@H]2C[C@@](C)(OC)[C@@H](O)[C@H](C)O2)[C@H](C)[C@@H](O[C@@H]2O[C@H](C)C[C@H](N(C)C)[C@H]2O)[C@](C)(OC)C[C@@H](C)C(=O)[C@H](C)[C@@H](O)[C@]1(C)O	Mycobacterium avium complex	N-979 (HIV+)			MIC	2 µg/mL
N#Cc1ccc(Oc2ccc(Nc3ncnc4ccccc34)cc2)nc1	Mycobacterium bovis BCG		luminescence		MIC50	>50 µM
Cc1ccc2oc(=O)n(-c3cccc(F)c3)c(=S)c2c1	Mycobacterium kansasii	6509/96		14 d	MIC	16 µM
CO[C@@]1(NC(=O)CCCC(N)C(=O)O)C(=O)N2C(C(=O)O)=C(COC(C)=O)CSC21	Mycobacterium fortuitum	1030-8			MIC	>100 µg/mL
CC(C)N=c1cc2n(-c3ccc(Cl)cc3)c3ccccc3nc-2cc1Nc1ccc(Cl)cc1	Mycobacterium bolletii	Clinical isolate	broth dilution		MIC50	≤0.5 µg/mL
O=c1oc2ccc(Br)cc2c(=S)n1-c1ccc(C(F)(F)F)cc1	Mycobacterium kansasii	My 235/80		21 d	MIC	16 µM
Cc1nc(Nc2ccc(Oc3cccc(C(F)(F)F)c3)cc2)c2ccc(F)cc2n1	Mycobacterium bovis BCG		luminescence		MIC50	>20 µM
Cc1ccc2oc(=S)n(-c3ccc(Cl)c(Cl)c3)c(=S)c2c1	Mycobacterium kansasii	My 235/80		21 d	MIC	8 µM
FS(F)(F)(F)(F)c1ccc(CCNc2ncnc3ccoc23)cc1	Mycobacterium bovis BCG		luminescence		MIC50	>20 µM
CCCCCCc1ccc(NC(=O)NNC(=O)c2ccncc2)cc1	Mycobacterium avium	MY330/88	broth dilution	14 d	MIC100	62.5 µM
Cc1nc(NCCc2ccc(C(F)(F)F)cc2)c2ccccc2n1	Mycobacterium bovis BCG		luminescence		MIC50	10 µM
O=C(NNC(=O)c1ccncc1)Nc1c(Cl)cc(Cl)cc1Cl	Mycobacterium kansasii	My 6509/96	broth dilution	7 d	MIC100	125 µM
COc1ccc2nc(C)cc(NCCc3ccc(OC(F)(F)F)cc3)c2c1	Mycobacterium bovis BCG		luminescence		MIC50	20 µM
CO[C@H]1/C=C/O[C@@]2(C)Oc3c(C)c(O)c4c(O)c(c5c(c4c3C2=O)NC2(CCN(CC(C)C)CC2)N=5)=NC(=O)/C(C)=C\C=C\[C@H](C)[C@H](O)[C@@H](C)[C@@H](O)[C@@H](C)[C@H](OC(C)=O)[C@@H]1C	Mycobacterium avium complex	N-325 (HIV-)			MIC	0.8 µg/mL
CC(C)(C)c1ccc(CCNc2ncnc3sccc23)cc1	Mycobacterium bovis BCG		luminescence		MIC50	>20 µM
O=C(NNC(=O)c1ccncc1)Nc1ccc(Cl)c(Cl)c1	Mycobacterium kansasii	My 235/80	broth dilution	14 d	MIC100	125 µM

Repeating the final 3 entries:

smiles	agent	strain or isolate	method	setting	measure	value
CO[C@H]1/C=C/O[C@@]2(C)Oc3c(C)c(O)c4c(O)c(c5c(c4c3C2=O)NC2(CCN(CC(C)C)CC2)N=5)=NC(=O)/C(C)=C\C=C\[C@H](C)[C@H](O)[C@@H](C)[C@@H](O)[C@@H](C)[C@H](OC(C)=O)[C@@H]1C	Mycobacterium avium complex	N-325 (HIV-)			MIC	0.8 µg/mL
CC(C)(C)c1ccc(CCNc2ncnc3sccc23)cc1	Mycobacterium bovis BCG		luminescence		MIC50	>20 µM
O=C(NNC(=O)c1ccncc1)Nc1ccc(Cl)c(Cl)c1	Mycobacterium kansasii	My 235/80	broth dilution	14 d	MIC100	125 µM

Blank or dashed fields: not listed here. A number after MIC or MFC names an inhibition level or a share of isolates.